The list shows a part of the results, in another mix than the full data. Records with an inconclusive call do not appear. Calls of active or inactive are those of the source. The call rests on the fitted dose curve.
Assay: Assay for Inhibitors of Influenza NS1 Protein Function: Hit Validation; further: 0% is about no effect
Settings: influenza NS1 function cell assay, 15-point titration; at 32.9 µM (top of the series)
Description: NIH Chemical Genomics Center [NCGC]
NIH Molecular Libraries Probe Centers Network [MLPCN]
Assay Submitter (PI): Daniel Engel
Influenza is a world-wide public health problem and emerging forms of the virus have the potential to cause a pandemic of equal or greater magnitude to the outbreaks recorded in 1918, 1957 or 1968. Vaccine development is proceeding and there also exist two classes of anti-influenza compounds. However these therapeutic modalities are neither fully effective nor widely enough available to fulfill global needs. In addition their potential usefulness against newly emergent strains is not known. Efforts are needed to develop novel agents against influenza virus, including broad-spectrum agents. Identification of small molecules that inhibit NS1 function either directly or by interfering with specific cellular pathways may be a key to increasing our defense against the virus.
We have miniaturized and optimized a cell based assay in which NS1 from influenza A is expressed in the budding yeast S. cerevisiae. NS1 is a multi-functional protein that counters the host innate immune response and facilitates viral versus cellular gene expression. Expression of NS1 causes a pronounced slow growth phenotype in yeast due to its intrinsic molecular activities. […]
9. Read plate using Viewlux protocol for optical density 600 (OD600) using excitation filter 600nm.

| SMILES | activity change, negative = inhibition |
| --- | --- |
| NC(=O)Nc1ccc([As](=O)(O)O)cc1 | inactive: 6.07% |

From PubChem BioAssay AID492980 (National Center for Advancing Translational Sciences (NCATS), 2010)
